The text below walks through data of patent US20040102514A1 (priority 2003, published 2004).

The data set in a line: Solubility of the powder for mixing into feed.

With “12,13-Epoxytricothec-9-ene-3α,7α,8α, 15-tetraol”, the solubility entry is on record as “fully soluble”.
